# Laboratory results taken from paper PMC7949102 (The Journal of Biological Chemistry, 2021).
# System: NC(=O)c1ccc[n+]([C@@H]2O[C@H](COP(=O)(O)OP(=O)(O)OC[C@H]3O[C@@H](n4cnc5c(N)ncnc54)[C@H](O)[C@@H]3O)[C@@H](O)[C@H]2O)c1
# Assay: purified protein
# Conditions: pH 7.5; 23.0 °C
substance,measurement,value
Lart1 (Legionella pneumophila subsp. pneumophila str. Philadelphia 1),Km,"1.57 (95% CI 1.26, 1.95) μM"
